Data: patent US20220380829A1, “Method of Diagonosizing Pathogens and their Antimicrobial Susceptibility” (HANGZHOU DIAN MEDICAL LABORATORY CO., LTD., priority 2019, published 2022)

system: Staphylococcus aureus; experiment: WGS genomic phylogenetic tree and resistance determinant susceptibility prediction; details: 22 blinds; present method compared with VITEK2 AST

**Q.** For Gentamicin, which “Negative predictive value (NPV)” value is on record?
**A.** 100.00%

**Q.** And the Specificity?
**A.** 100.00%

**Q.** Teicoplanin was tested. Which “Negative predictive value (NPV)” value did it give?
**A.** 100.00%

**Q.** And the Specificity?
**A.** 100.00%

**Q.** What does the source list for penicillin?
**A.** Negative predictive value (NPV): 100.00%; Specificity: 100.00%
